Laboratory results as given in patent publication US20080227220A1, “Lateral Flow Binding Assay” (priority 2004, published 2008).

System: antibiotic binding protein (PBP)
Test: Lateral flow test strip for detection of β-lactams in milk (sequential assay)
Set-up: species or system Bacillus stearothermophilus
Settings: milk sample 0.1 mL; 5 min then 10 min incubation at 64° C.; capture line vs reference line read visually

Row | Structure (SMILES) | Sensitivity [ppb]
1 | Cc1onc(-c2ccccc2Cl)c1C(=O)N[C@@H]1C(=O)N2[C@@H]1SC(C)(C)[C@@H]2C(=O)O [Cloxacillin, cloxacillin] | 60
2 | CC1(C)S[C@@H]2[C@H](NC(=O)[C@H](N)c3ccc(O)cc3)C(=O)N2[C@H]1C(=O)O [Amoxicillin, amoxicillin] | 4
3 | CC1(C)S[C@@H]2[C@H](NC(=O)Cc3ccccc3)C(=O)N2[C@H]1C(=O)O [Penicillin G, penicillin G] | 4
4 | CC1(C)S[C@@H]2[C@H](NC(=O)[C@H](N)c3ccccc3)C(=O)N2[C@H]1C(=O)O [Ampicillin, ampicillin] | 4
5 | CO/N=C(\C(=O)N[C@@H]1C(=O)N2C(C(=O)O)=C(CSC(=O)c3ccco3)CS[C@H]12)c1csc(N)n1 [Ceftiofur, ceftiofur] | 4
